Results on two compounds are retold here after paper PMC11053914 (Viruses, 2024).

This series relates to HEK293T cells. Briefly: Cytotoxicity assay (CellTiter-Glo) in HEK293T cells. It is filed as cell-based. The following applies: 2-fold dilutions from 100 μM, 48 h, DMSO group = 100%.

As for `CC[C@H](C)[C@H](NC(=O)[C@H](C)NC(=O)[C@H](CC(C)C)NC(=O)CNC(C)=O)C(=O)N[C@H](C(=O)N[C@H](C(=O)N[C@@H](Cc1ccc(O)cc1)C(=O)N[C@@H](Cc1c[nH]c2ccccc12)C(=O)NCC(=O)N[C@@H](CC(C)C)C(=O)N[C@@H](Cc1c[nH]cn1)C(=O)N[C@H](C(=O)NCC(=O)N[C@@H](CCC(=O)O)C(=O)N[C@@H](CCCNC(=N)N)C(=O)NCC(N)=O)[C@@H](C)O)[C@@H](C)O)[C@@H](C)O` [VMP-63], the “cell viability of HEK293T cells” value is given as “no significant effect on cell viability”.
In the case of `CC[C@H](C)[C@H](NC(=O)[C@H](C)NC(=O)[C@H](CO)NC(=O)[C@H](CC(N)=O)NC(=O)[C@H](CO)NC(=O)[C@H](Cc1ccccc1)NC(=O)[C@H](CS)NC(=O)[C@H](CC(=O)O)NC(=O)[C@H](Cc1ccccc1)NC(=O)[C@H](Cc1ccc(O)cc1)NC(=O)[C@H](Cc1ccc(O)cc1)NC(=O)[C@H](CC(C)C)NC(=O)[C@H](CCCNC(=N)N)NC(C)=O)C(N)=O` [VMP-108] it was “no significant effect on cell viability”.
